{"source": "PubChem BioAssay AID1259311", "about": "(ICCB-Longwood Screening Facility, Harvard Medical School, 2017)", "note": "Where “and” joins values, the source holds several entries; their conditions need not be identical. Equal entries are not always repeated. This is a selection; strong and weak results do not stand in their true shares. Calls of active or inactive are those of the source. No stated cut-off is given here; in the data, active means inhibition above about 85%; inactive means the rest."}
{"assay": "growth inhibition of S. aureus RN4220, primary screen, OD600 (AID 1259311);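 further: plate controls were untreated cells for no effect and reference antibiotic for full effect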", "conditions": "OD600, 16 h, hits give high values"}
{"smiles": "O=[N+]([O-])c1cccc(NC2=NCC(CBr)S2)c1", "note": "(stereo not given)", "inhibition": "inactive: 3.44%"}
{"smiles": "O=C(O)CNc1ccc([As](=O)(O)O)cc1", "inhibition": "inactive: 1.82%"}
{"smiles": "CC(C)(C)C(=O)NC(Sc1ccncn1)C(Cl)(Cl)Cl", "note": "(stereo not given)", "inhibition": "inactive: 2%"}
{"smiles": "O=[N+]([O-])c1ncn(CCn2ncnc2[N+](=O)[O-])n1", "inhibition": "inactive: -1.84%"}
{"smiles": "O=C(Nc1cc([As](=O)(O)O)ccc1O)c1ccccc1", "inhibition": "inactive: 2.2%"}
{"smiles": "CP(=O)(OC12CC3CC(CC(C3)C1)C2)OC12CC3CC(CC(C3)C1)C2", "inhibition": "inactive: 15.7%"}
{"smiles": "Nc1ccc2c(ccc3cccnc32)n1.O=[N+]([O-])c1cc([N+](=O)[O-])c(O)c([N+](=O)[O-])c1", "inhibition": "inactive: 1.65%"}
{"smiles": "O=P1(N(CCCl)CCCl)OCCCS1", "note": "(stereo not given)", "inhibition": "inactive: 1.99%"}
{"smiles": "CN(C)C(=O)c1c([N+](=O)[O-])cc([N+](=O)[O-])cc1[N+](=O)[O-]", "inhibition": "inactive: 24.9%"}
{"smiles": "CN(C(=O)Cc1ccc(Cl)c(Cl)c1)C1CCCCC1N1CCCC1", "note": "(stereo not given)", "inhibition": "inactive: 4.69% and inactive: 6.24% and inactive: 8.61%"}
{"smiles": "CC1CCN(C(=O)Oc2c(Cl)cc(Cl)c3cccnc23)CC1", "inhibition": "inactive: 9.06%"}
{"smiles": "CC(C)(C)c1ccc(OP(C)(=O)O)cc1", "inhibition": "inactive: 1.38%"}
{"smiles": "Nc1ccc([As](=O)(O)c2ccc(N)cc2)cc1", "inhibition": "inactive: 4.47%"}
{"smiles": "COc1ccccc1OP(C)(=O)Nc1ccccc1Br", "note": "(stereo not given)", "inhibition": "inactive: 6.5%"}
{"smiles": "C[N+]1=C2C=CC=CC=C2SC12C([N+](=O)[O-])=CC([N+](=O)[O-])=C[C-]2[N+](=O)[O-]", "note": "(stereo not given)", "inhibition": "inactive: 52.5%"}
{"smiles": "CP(=O)(Nc1ccc(Cl)cc1)Oc1ccc(F)cc1", "note": "(stereo not given)", "inhibition": "inactive: 4.51%"}
{"smiles": "COc1ccccc1OP(C)(=O)Nc1c(C)n(C)n(-c2ccccc2)c1=O", "note": "(stereo not given)", "inhibition": "inactive: -0.505%"}
{"smiles": "O=[N+]([O-])c1cccc2n[nH]nc12", "inhibition": "inactive: -3.44%"}
{"smiles": "CC(=O)N1C2C3N(C(C)=O)C1C1N(C(C)=O)C(C(N1C(C)=O)N3C(C)=O)N2C(C)=O", "inhibition": "inactive: 5.2%"}
{"smiles": "O=C(OCCCN1CCCC1)C(O)(c1ccccc1)C1CCCCC1", "note": "(stereo not given)", "inhibition": "inactive: 0.904%"}
{"smiles": "CP(=O)(Oc1ccccc1)N1CCOC1=O", "note": "(stereo not given)", "inhibition": "inactive: -0.286%"}
{"smiles": "Cc1ccc(NP(=O)(Oc2ccccc2)Oc2ccccc2)nc1", "inhibition": "inactive: 1.43%"}
{"smiles": "CCc1nc2c(n1)c1c(non1O)c1c2no[n+]1[O-]", "inhibition": "inactive: -3.69%"}
{"smiles": "O=[N+]([O-])c1cc([N+](=O)[O-])c(CCNc2ccccc2)c([N+](=O)[O-])c1", "inhibition": "inactive: 17.3%"}
{"smiles": "CCc1ccc(OP(C)(=O)Nc2cccnc2)cc1", "note": "(stereo not given)", "inhibition": "inactive: 6.29%"}
{"smiles": "CCN(CC)CC(O)COC(=O)C(O)(c1ccccc1)C1CCCCC1", "note": "(stereo not given)", "inhibition": "inactive: -2.06%"}
{"smiles": "COc1ccc(OP(C)(=O)Nc2ccc(Br)cc2)cc1", "note": "(stereo not given)", "inhibition": "inactive: 0.27%"}
{"smiles": "COc1ccc(C2=NCC(CBr)S2)cc1", "note": "(stereo not given)", "inhibition": "inactive: 3.74%"}
{"smiles": "CP(=O)(Nc1ccccn1)Oc1ccccc1", "note": "(stereo not given)", "inhibition": "inactive: -1.09%"}
{"smiles": "COc1ccccc1OP(C)(=O)Nc1ccc(C)cc1C", "note": "(stereo not given)", "inhibition": "inactive: 3.8%"}
{"smiles": "CCc1ccc(OP(C)(=O)O)cc1", "inhibition": "inactive: 25.9%"}
{"smiles": "CC(C)CC(=O)NC(Sc1ccc(Cl)cc1)C(Cl)(Cl)Cl", "note": "(stereo not given)", "inhibition": "inactive: 0.269%"}
{"smiles": "O=[N+]([O-])c1cc([N+](=O)[O-])c(Nc2ccccn2)c([N+](=O)[O-])c1", "inhibition": "active: 94.7%"}
{"smiles": "Cc1c(NP(C)(=O)Oc2ccc(C(C)C)cc2)c(=O)n(-c2ccccc2)n1C", "note": "(stereo not given)", "inhibition": "inactive: 3.23%"}
{"smiles": "Nc1cc(N)c2nonc2c1[N+](=O)[O-]", "inhibition": "inactive: -1.07%"}
{"smiles": "Oc1ccccc1CNc1ccccn1", "inhibition": "inactive: 3.17%"}
{"smiles": "O=C(NC(Sc1ccncn1)C(Cl)(Cl)Cl)c1ccccc1", "note": "(stereo not given)", "inhibition": "inactive: -5.48%"}
{"smiles": "COc1ccc(OP(C)(=O)Nc2ccccn2)cc1", "note": "(stereo not given)", "inhibition": "inactive: -0.379%"}
{"smiles": "COc1ccccc1OP(=O)(Nc1ccc(C)cn1)Oc1ccccc1OC", "inhibition": "inactive: 4.83%"}
{"smiles": "Cc1ccc(OP(=O)(Nc2nccs2)Oc2ccc(C)cc2)cc1", "inhibition": "inactive: 3.84%"}
{"smiles": "Clc1ccc(Cl)c(NC2=NCC(CBr)S2)c1", "note": "(stereo not given)", "inhibition": "inactive: 17.9%"}
{"smiles": "CN(C)CCOC(=O)C(O)(c1ccccc1)C1CCCC1", "note": "(stereo not given)", "inhibition": "inactive: 7.32%"}
{"smiles": "CN1CCCC(OC(=O)C(c2ccccc2)c2ccccc2)C1", "note": "(stereo not given)", "inhibition": "inactive: -0.61%"}
{"smiles": "NC(=O)c1cc([N+](=O)[O-])cc([N+](=O)[O-])c1N", "inhibition": "inactive: 12.3%"}
{"smiles": "COc1ccccc1OP(C)(=O)Nc1ccc(Br)cc1", "note": "(stereo not given)", "inhibition": "inactive: 4.36%"}
{"smiles": "CC(C)N1C(=O)CC2(CCN(CCOC(=O)C(O)(c3ccccc3)c3ccccc3)CC2)C1=O", "inhibition": "inactive: 2.07%"}
{"smiles": "CCN(N=Nc1nonc1N)c1nonc1N", "inhibition": "inactive: 6.31%"}
{"smiles": "CP(=O)(Nc1ccc(Cl)cc1Cl)Oc1ccccc1", "note": "(stereo not given)", "inhibition": "inactive: -3.45%"}
{"smiles": "CCOP(=O)(Nc1ccccc1)OCC", "inhibition": "inactive: 12.7%"}
{"smiles": "Cc1cc(SC(NC(=O)c2ccc(F)cc2)C(Cl)(Cl)Cl)ncn1", "note": "(stereo not given)", "inhibition": "inactive: -5.49%"}
{"smiles": "Cc1ccc(NP(=O)(Oc2ccccc2F)Oc2ccccc2F)nc1", "inhibition": "inactive: 2.38%"}
{"smiles": "COc1ccccc1OP(C)(=O)Nc1ccc(C)c(C)c1", "note": "(stereo not given)", "inhibition": "inactive: -13.7%"}
{"smiles": "CC(C)=NN=C(N)N[N+](=O)[O-]", "inhibition": "inactive: -2.92%"}
{"smiles": "O=C(O)c1ccccc1[As](=O)(O)O", "inhibition": "inactive: 9.09%"}
{"smiles": "CC(=O)Nc1ccc([As](=O)(O)O)cc1", "inhibition": "inactive: -0.29%"}
{"smiles": "CCCC1OP(N)(=O)OCC1CC", "note": "(stereo not given)", "inhibition": "inactive: -0.33%"}
{"smiles": "CCN(CC)CC(C)C(C)OC(=O)C(O)(c1ccccc1)c1ccccc1", "note": "(stereo not given)", "inhibition": "inactive: 8.3%"}
{"smiles": "O=C1C(O)=C([N+](=O)[O-])C(=O)C(O)=C1[N+](=O)[O-]", "inhibition": "inactive: 0.881%"}
{"smiles": "Cc1cc(C)cc(OP(C)(=O)Nc2cccc(C(F)(F)F)c2)c1", "note": "(stereo not given)", "inhibition": "inactive: 4.44%"}
{"smiles": "O=P(Nc1nc2ccc(Cl)cc2s1)(c1ccccc1)c1ccccc1", "inhibition": "inactive: 5.37%"}
{"smiles": "CP(=O)(Nc1ccccc1)Oc1ccc(F)cc1", "note": "(stereo not given)", "inhibition": "inactive: 2.32%"}
{"smiles": "Cc1ccccc1OP(=O)(Nc1ccccn1)Oc1ccccc1C", "inhibition": "inactive: 9.14%"}
{"smiles": "CC(NC(=O)COC(=O)C(O)(c1ccccc1)c1ccccc1)c1ccccc1", "note": "(stereo not given)", "inhibition": "inactive: 3.91%"}
{"smiles": "CN(C)C(=O)Oc1noc2ccccc12", "inhibition": "inactive: 4.16%"}
{"smiles": "O=[N+]([O-])c1cc([N+](=O)[O-])c(OC2CCCCC2O)c([N+](=O)[O-])c1", "note": "(stereo not given)", "inhibition": "inactive: 2.43%"}
